Measurements as given in paper PMC6191443, “Structural basis for arginine glycosylation of host substrates by bacterial effector proteins” (2018).

Experiment: non-reducing gel, HEK293T lysates
Conditions: glycan lost; control: co-expression with WT SseK1

B1: TRADD: SseK1 DxD-AxA and HEN motif single mutants (protein)
parent chain: MAAGQNGHEEWVGSAYLFVESSLDKVVLSDAYAHPQQKVAVYRALQAALAESGGSPDVLQMLKIHRSDPQLIVQLRFCGRQPCGRFLRAYREGALRAALQRSLAAALAQHSVPLQLELRAGAERLDALLADEERCLSCILAQQPDRLRDEELAELEDALRNLKCGSGARGGDGEVASAPLQPPVPSLSEVKPPPPPPPAQTFLFQGQPVVNRPLSLKDQQTFARSVGLKWRKVGRSLQRGCRALRDPALDSLAYEYEREGLYEQAFQLLRRFVQAEGRRATLQRLVEALEENELTSLAEDLLGLTDPNGGLA
  oligomerisation: increases
